PMC10992699, “Comparative structure activity and target exploration of 1,2-diphenylethynes in Haemonchus contortus and Caenorhabditis elegans” (International Journal for Parasitology: Drugs and Drug …, 2024)

Experiments:
Assay in all cases: Thermal proteome profiling (TPP)
HCON_00134350 = type: binding, Haemonchus contortus; conditions: compound 50 μM, H. contortus lysate, 37-67 °C
HCON_00021470 = type: binding, Haemonchus contortus; conditions: compound 50 μM, H. contortus lysate, 37-67 °C
HCON_00099760 = type: binding, Haemonchus contortus; conditions: compound 50 μM, H. contortus lysate, 37-67 °C
F30A10.9 = type: binding, Caenorhabditis elegans; conditions: compound 50 μM, C. elegans lysate, 37-67 °C
F15B9.8 = type: binding, Caenorhabditis elegans; conditions: compound 50 μM, C. elegans lysate, 37-67 °C
PINN-4 = type: binding, Caenorhabditis elegans; conditions: compound 50 μM, C. elegans lysate, 37-67 °C
D1086.10 = type: binding, Caenorhabditis elegans; conditions: compound 50 μM, C. elegans lysate, 37-67 °C
H14N18.4 = type: binding, Caenorhabditis elegans; conditions: compound 50 μM, C. elegans lysate, 37-67 °C
DNC-4 = type: binding, Caenorhabditis elegans; conditions: compound 50 μM, C. elegans lysate, 37-67 °C
GST-15 = type: binding, Caenorhabditis elegans; conditions: compound 50 μM, C. elegans lysate, 37-67 °C
ZNF-598 = type: binding, Caenorhabditis elegans; conditions: compound 50 μM, C. elegans lysate, 37-67 °C
C01G6.4 = type: binding, Caenorhabditis elegans; conditions: compound 50 μM, C. elegans lysate, 37-67 °C

Measured: thermal stability of protein in the presence of compound

C(#Cc1ccc(-c2ccn[nH]2)cc1)c1ccccc1 [UMW-9729]
stabilised: HCON_00134350 | HCON_00021470 | HCON_00099760 | F30A10.9 | F15B9.8 | PINN-4 | D1086.10 | H14N18.4 | DNC-4 | GST-15 | ZNF-598 | C01G6.4
